Values from PubChem BioAssay AID504761 (Drosophila RNAi Screening Center, 2011)
Screen: 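Insect host genes that dengue virus relies on to spread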 (primary screen). Cells: D.Mel-2 cells from Drosophila. Knock-down reagent: long dsRNA against Drosophila genes. Challenge: infection with dengue virus type 2; dose and infection time not stated. Measured: 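Cells stained for dengue envelope protein and imaged; percent of infected cells per well on duplicate plates, ranked by infection, with stained nuclei counted for cell number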. Scale: infection score: higher = more virus-infected cells. Call rule: 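Low infection ranks in the two replicates (chance level up to 0.065) followed by a retest with a 1.5-fold or larger significant decrease, p below 0.05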. Calls: active = confirmed: knock-down lowers infection; inactive = not picked or not confirmed.
The deposit covers about 22,000 reagents; below is an unselected part of those that have a named target and a result. Of all reagents, 116 (0.52%) are marked active. 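Calls depend on retest data that are not deposited; infection was ranked per plate without normalising between plates; the unit of the infection score is not given.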 The numbers tell different reagents against one gene apart. Not all columns of the deposit are shown. The record does not give: the amount of reagent, the time to read-out.

After knock-down of CG16953 the results were infection score, replicate 1 = 5.88; inactive.
Against ATPsynbetaL #1, the values are infection score, replicate 1 = 1.17; inactive.
Silencing of ATPsynbetaL #2 resulted in: infection score, replicate 1 = 0.98; inactive.
CG16985 showed infection score, replicate 1 = 10.3; inactive.
Knock-down of Sema1a gave: infection score, replicate 1 = 4.53; inactive.
CG13023 showed infection score, replicate 1 = 1.99; inactive.
For Gr64f #1 the deposit lists infection score, replicate 1 = 1.48; inactive.
After knock-down of Gr64f #2, the record shows infection score, replicate 1 = 4.44; inactive.

Records above whose target name begins with A or a (2):
ATPsynbetaL #1: infection score, replicate 1 = 1.17; Call = inactive
ATPsynbetaL #2: infection score, replicate 1 = 0.98; Call = inactive

Additional records follow.
After knock-down of Ir94e, the screen gave infection score, replicate 1 = 16.2; inactive.
CG13965 scored infection score, replicate 1 = 15.1; inactive.
With knock-down of AP-2sigma the results were infection score, replicate 1 = 2.88; inactive.
Silencing of Tssk #1 gave: infection score, replicate 1 = 4.84; inactive.
After knock-down of Tssk #2, the record shows infection score, replicate 1 = 11.5; inactive.
Silencing of CG17571 #1 resulted in: infection score, replicate 1 = 0.53; inactive.
With knock-down of CG17571 #2, the screen gave infection score, replicate 1 = 2.06; inactive.
With knock-down of CG17571 #3, the screen gave infection score, replicate 1 = 9.02; inactive.
